How the values were obtained:
[1] = 101.33 kPa, Liquid, Vibrating tube method
[2] = refractive index (Na D-line) (dimensionless); conditions: 101.33 kPa, Liquid, Standard Abbe refractometry

CC[n+]1ccccc1.O=S(=O)(F)[N-]S(=O)(=O)F [1-ethylpyridinium bis(fluorosulfonyl)amide]
Conditions	mass density, [1] [kg/m3]	refractive index, [2]
283.15 K	1471.9	1.47477
288.15 K	1467.5	1.47331
293.15 K	1463.1	1.47185
298.15 K	1458.7	1.47038
303.15 K	1454.3	1.4689
308.15 K	1449.9	1.46745
313.15 K	1445.5	1.46602
318.15 K	1441.1	1.46458
323.15 K	1436.7	1.46315
328.15 K	1432.4	1.46174
333.15 K	1428.1	1.46032
338.15 K	1423.7	1.45895
343.15 K	1419.4	1.45754
348.15 K	1415.1	1.4561
353.15 K	1410.8	1.45476

CCCCCC[n+]1ccccc1.O=S(=O)(F)[N-]S(=O)(=O)F [1-hexylpyridinium bis(fluorosulfonyl)amide]
Conditions	mass density, [1] [kg/m3]	refractive index, [2]
283.15 K	1313.7	1.47548
288.15 K	1309.8	1.47398
293.15 K	1305.8	1.47248
298.15 K	1301.9	1.47098
303.15 K	1297.9	1.46948
308.15 K	1294	1.46798
313.15 K	1290	1.46651
318.15 K	1286.1	1.46502
323.15 K	1282.1	1.46355
328.15 K	1278.2	1.4621
333.15 K	1274.2	1.46063
338.15 K	1270.3	1.4592
343.15 K	1266.4	1.45776
348.15 K	1262.5	1.45628
353.15 K	1258.6	1.45489

CCC[N+]1(C)CCCC1.O=S(=O)(F)[N-]S(=O)(=O)F [1-methyl-1-propylpyrrolidinium bis(fluorosulfonyl)amide]
Conditions	mass density, [1] [kg/m3]	refractive index, [2]
283.15 K	1350.3	1.44659
288.15 K	1346.2	1.44522
293.15 K	1342.1	1.44385
298.15 K	1338.1	1.4425
303.15 K	1334.1	1.44114
308.15 K	1330.1	1.43977
313.15 K	1326.1	1.43846
318.15 K	1322.2	1.4371
323.15 K	1318.2	1.43577
328.15 K	1314.3	1.43446
333.15 K	1310.4	1.43312
338.15 K	1306.6	1.43182
343.15 K	1302.7	1.43052
348.15 K	1298.9	1.42919
353.15 K	1295.1	1.42792
